Results deposited as PubChem BioAssay AID624099 (ICCB-Longwood, 2012)
Here is an unselected part of about 21,000 reagents. 497 of all reagents (2.4%) count as active. 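Higher z means weaker E2 silencing; only reporter increases were scored, and knock-downs that hurt cell survival may mask genuine repressor factors.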

Aim: 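Knock-downs relieving repression by E2 of an HPV18 LCR luciferase reporter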 (primary screen)
Cells: human C33A cervical carcinoma cells (HPV-negative) stably expressing BPV1 E2 and an HPV18 LCR luciferase reporter
Knock-down reagent: siRNA pool against human genes, 40 nM
Duration: 72 h
Measurement: 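Per-well luciferase luminescence, z-scored on each plate against the plate mean and SD with control wells left out, then averaged across three replicate plates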
Reading the numbers: mean z-score and z-score: higher = stronger reporter signal, weaker E2 silencing
Call rule: 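Hit if mean z-score reaches 2 and two or more of three replicate z-scores also reach 2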

| Gene | PubChem SID | mean z-score | z-score, replicate A | z-score, replicate B | z-score, replicate C | Outcome |
| --- | --- | --- | --- | --- | --- | --- |
| TACC2 (transforming acidic coiled-coil containing protein 2) | SID134316632 | 2 | 1.99 | 2.11 | 1.91 | inactive |
| ZNF620 (zinc finger protein 620) | SID134325708 | -2.01 | -1.86 | -2.17 | -1.99 | inactive |
| EMP1 (epithelial membrane protein 1) | SID134315007 | 0.41 | 0.5 | 0.61 | 0.12 | inactive |
| CENPB (centromere protein B) | SID56478610 | 0.29 | 0.28 | 0.46 | 0.13 | inactive |
| LOC389663 (retired record) | SID134328010 | -0.55 | -0.77 | -0.64 | -0.24 | inactive |
| CST3 (cystatin C) | SID134314329 | -1.34 | -1.4 | -1.24 | -1.39 | inactive |
| ASB16-AS1 (ASB16 antisense RNA 1) | SID134321696 | 0.58 | 0.57 | 0.64 | 0.52 | inactive |
| PKN2 (protein kinase N2) | SID56478809 | -2.95 | -3.02 | -2.82 | -3.02 | inactive |
| WDR38 (WD repeat domain 38) | SID134328128 | 0.17 | -0.38 | 0.64 | 0.25 | inactive |
| ZAN (zonadhesin) | SID134316115 | 0.54 | 0.06 | 0.95 | 0.61 | inactive |
| SGCA (sarcoglycan alpha) | SID134316797 | 0.18 | 0.15 | 0.17 | 0.21 | inactive |
| TAX1BP1 (Tax1 binding protein 1) | SID134320866 | -0.94 | -1.08 | -0.79 | -0.95 | inactive |
| OR51G2 (olfactory receptor family 51 subfamily G member 2) | SID134329888 | -0.4 | -0.56 | -0.18 | -0.45 | inactive |
| ST13P5 (ST13, Hsp70 interacting protein pseudogene 5) | SID134320044 | 0.13 | 0.52 | -0.13 | 0 | inactive |
| XPO5 (exportin 5) | SID134318190 | -1.29 | -1.44 | -1.2 | -1.22 | inactive |
| INTS8 (integrator complex subunit 8) | SID134323997 | 0.36 | 0.39 | 0.63 | 0.06 | inactive |
| ZNF208 (zinc finger protein 208) | SID134323295 | -0.05 | 0.11 | -0.19 | -0.07 | inactive |
| UTP14C (UTP14C small subunit processome component) | SID134318304 | 0.52 | 0.72 | 0.26 | 0.58 | inactive |
| ENTHD1 (ENTH domain containing 1) | SID134322197 | 0.05 | -0.18 | 0.22 | 0.09 | inactive |
| GCGR (glucagon receptor) | SID134310954 | -1.46 | -1.23 | -1.44 | -1.71 | inactive |
| LOC339583 (retired record) | SID134325977 | 0.48 | 0.64 | 0.3 | 0.49 | inactive |
| SYNGAP1 (synaptic Ras GTPase activating protein 1) | SID134329971 | -0.82 | -0.54 | -1.53 | -0.38 | inactive |
| CES1 (carboxylesterase 1) | SID134313888 | -0.53 | -0.46 | -0.54 | -0.58 | inactive |
| KIDINS220 (kinase D interacting substrate 220) | SID134325566 | -1.26 | -1.58 | -0.92 | -1.27 | inactive |
| ALDH1A1 (aldehyde dehydrogenase 1 family member A1) | SID134313580 | 0.22 | -0.23 | 0.46 | 0.42 | inactive |
| KLF9 (KLF transcription factor 9) | SID134315578 | 1.52 | 1.44 | 1.33 | 1.8 | inactive |
| IFNW1 (interferon omega 1) | SID134316900 | -0.98 | -0.92 | -0.93 | -1.08 | inactive |
| OR8J3 (olfactory receptor family 8 subfamily J member 3) | SID134329835 | -0.32 | -0.48 | -0.13 | -0.37 | inactive |
| PPIAP8 (peptidylprolyl isomerase A pseudogene 8) | SID134326684 | 0.43 | 0.47 | 0.48 | 0.35 | inactive |
| PDE3A (phosphodiesterase 3A) | SID134312689 | 0.16 | 0.1 | 0.37 | 0 | inactive |

Reformatted: results already given
Gene	PubChem SID	mean z-score	z-score, replicate A	z-score, replicate B	z-score, replicate C	Outcome
UTP14C (UTP14C small subunit processome component)	SID134318304	0.52	0.72	0.26	0.58	inactive
ENTHD1 (ENTH domain containing 1)	SID134322197	0.05	-0.18	0.22	0.09	inactive
GCGR (glucagon receptor)	SID134310954	-1.46	-1.23	-1.44	-1.71	inactive
LOC339583 (retired record)	SID134325977	0.48	0.64	0.3	0.49	inactive

More entries follow:
| Gene | PubChem SID | mean z-score | z-score, replicate A | z-score, replicate B | z-score, replicate C | Outcome |
| --- | --- | --- | --- | --- | --- | --- |
| IK (IK cytokine) | SID134316479 | -0.43 | -0.24 | -0.54 | -0.51 | inactive |
| CHST7 (carbohydrate sulfotransferase 7) | SID134313315 | -0.82 | -1.04 | -0.68 | -0.75 | inactive |
| ZMIZ1 (zinc finger MIZ-type containing 1) | SID134312157 | -1.76 | -1.62 | -2.08 | -1.57 | inactive |
| ANXA7 (annexin A7) | SID134315251 | -0.62 | -0.59 | -0.73 | -0.55 | inactive |
| RAB15 (RAB15, member RAS oncogene family) | SID134329150 | 0.1 | 0.59 | -0.05 | -0.26 | inactive |
| AP4E1 (adaptor related protein complex 4 subunit epsilon 1) | SID134325050 | -1.35 | -1.55 | -1.45 | -1.06 | inactive |
| TTC4 (tetratricopeptide repeat domain 4) | SID134323587 | -1.1 | -0.54 | -1.21 | -1.55 | inactive |
| EID1 (EP300 interacting inhibitor of differentiation 1) | SID134309819 | 0.81 | 0.52 | 0.99 | 0.92 | inactive |
| CNTN4 (contactin 4) | SID134323006 | -0.18 | 0 | -0.11 | -0.43 | inactive |
| RNF40 (ring finger protein 40) | SID134312041 | -0.31 | -0.16 | -0.39 | -0.38 | inactive |
| PYGO2 (pygopus family PHD finger 2) | SID134321110 | -0.15 | -0.24 | -0.16 | -0.04 | inactive |
| RNASE6 (ribonuclease A family member 6) | SID134321037 | -0.3 | -0.64 | -0.1 | -0.18 | inactive |
| OR8A1 (olfactory receptor family 8 subfamily A member 1) | SID134328251 | -0.81 | -0.9 | -0.79 | -0.74 | inactive |
| LINC02239 (long independently transcribed non-coding RNA 2239) | SID134327566 | 0.74 | 0.78 | 0.78 | 0.66 | inactive |
| IGHG3 (immunoglobulin heavy constant gamma 3 (G3m marker)) | SID134329743 | 1.36 | 1.52 | 1.28 | 1.28 | inactive |
| CARD9 (caspase recruitment domain family member 9) | SID134310437 | 1.22 | 0.6 | 1.85 | 1.22 | inactive |
| ATG9B (autophagy related 9B) | SID134321970 | -0.51 | -0.4 | -0.5 | -0.62 | inactive |
| TLE2 (TLE family member 2, transcriptional corepressor) | SID134319891 | 0.68 | 0.37 | 0.91 | 0.77 | inactive |
| ORC2 (origin recognition complex subunit 2) | SID56478626 | -0.09 | -0.33 | 0.23 | -0.16 | inactive |
| CATIP (ciliogenesis associated TTC17 interacting protein) | SID134326855 | -0.88 | -0.79 | -1.01 | -0.83 | inactive |
| MTMR8 (myotubularin related protein 8) | SID134312974 | 0.35 | 0.29 | 0.2 | 0.55 | inactive |
| LINC02175 (long independently transcribed non-coding RNA 2175) | SID134328647 | 0.03 | -0.02 | 0.16 | -0.04 | inactive |
| LOC401061 (retired record) | SID134327322 | 0.75 | 1.35 | 0.53 | 0.37 | inactive |
| HNRNPA1P7 (heterogeneous nuclear ribonucleoprotein A1 pseudogene 7) | SID134328654 | 1.81 | 1.85 | 1.64 | 1.93 | inactive |
| LOC149913 (retired record) | SID134326008 | 1.06 | 1.12 | 0.88 | 1.19 | inactive |
| RAB5B (RAB5B, member RAS oncogene family) | SID134310227 | -1.42 | -1.65 | -1.35 | -1.26 | inactive |
| P2RY4 (pyrimidinergic receptor P2Y4) | SID134311132 | 0.04 | 0.12 | -0.11 | 0.11 | inactive |
